Pooled drug test results. Numbers come from NIAID ChemDB, via PubChem.

Common to all: whole-cell or culture tests; species: Herpes simplex virus 1; endpoint: EC50

a–b is a range or a potency band. An empty or dashed field is not shown. ECn is the concentration giving n% inhibition of infection, replication or growth. Neighbouring rows are from separate reports.

compound | method | cells | strain | value
CCOP(=O)(OCC)C1=NOC(n2cc(F)c(=O)[nH]c2=O)C1 | plaque count | VERO | - | >100 µM
Nc1nc2c(ncn2/C=C2\[C@H](CO)C2(F)F)c(=O)[nH]1 | - | BSC-1 | - | >100 µM
COCc1cn([C@@H]2C[C@H](CO)[C@@H](O)C2)c(=O)nc1NCc1ccccc1 | plaque count | A549 | McIntyre | >2800 µM
Nc1nc(=O)n([C@H]2C[C@H](O)[C@@H](CO)O2)cc1/C=C/Br | plaque count | RK-13 | - | 0.3 µM
CSc1nsc(-c2ccc(C(F)(F)F)cc2)c1C#N | plaque count | VERO | F strain | >14 µM
N#Cc1c(-c2cccs2)nc(SCc2ccccc2)[nH]c1=O | plaque count | VERO | McIntyre | >20 µM
O=c1[nH]c(=O)n([C@H]2C[C@H](O)[C@@H](CO)O2)cc1I | cytopathic effect | HeLa | KOS | 0.5 µg/mL
COc1ccc(N(CC(=O)NC(C)(C)C)C(=O)[C@H]2CC[C@@]3(C)C4CC=C5C[C@@H](O)CC[C@]5(C)C4CC[C@]23C)cc1 | plaque count | Vero cells | KOS | 10.4 µM
Nc1nc2c(ncn2COC(CO)CO)c(=O)[nH]1 | cytopathic effect | VERO | - | 0.01–0.1 µM
[N-]=[N+]=N[C@@H]1C[C@@H](CO)S[C@H]1n1cnc2c(=O)[nH]cnc21 | - | - | - | >100 µg/mL
CCOC(=O)CC1(O)[C@@H](CO[Si](C)(C)C(C)(C)C)O[C@@H](n2ccc(=O)[nH]c2=O)[C@@H]1O[Si](C)(C)C(C)(C)C | plaque count | VERO | - | >3.4 µM
CSc1nsc(-c2ccc3ccccc3c2)c1C#N | plaque count | VERO | F strain | >20 µM
N=c1ncn(Cc2ccccc2)c2nc[nH]c12 | plaque count | BSC-1 | - | >50 µg/mL
CC(C)(C)[Si](C)(C)OC[C@H]1O[C@@H](n2ccc(=O)[nH]c2=O)[C@H](O[Si](C)(C)C(C)(C)C)[C@@]12O[C@H]2C(=O)NO | plaque count | VERO | - | 27 µM
Nc1ncnc2c1ncn2/C=C1\[C@H](CO)C1(F)F | - | BSC-1 | - | 70 µM
Cc1cn([C@H]2CC[C@@H](CO)O2)c(=S)[nH]c1=O | - | - | KOS | 0.28 µg/mL
COC(=O)CC1(O)C(O[Si](C)(C)C(C)(C)C)[C@H](n2ccc(=O)[nH]c2=O)O[C@@H]1CO[Si](C)(C)C(C)(C)C | plaque count | VERO | - | >3.2 µM
Nc1ccn([C@@H]2O[C@H](CO)[C@@H](O)[C@H]2F)c(=O)n1 | plaque count | VERO | 2931 | <0.1 µg/mL
[N-]=[N+]=N[C@H]1C[C@@H](CO)S[C@H]1n1cnc2c(N)ncnc21 | - | - | - | >100 µg/mL
CC[C@@H](N(C)C(=O)[C@@H](NC(=O)[C@@H](CC(=O)[C@@H](NC(=O)[C@H](C(C)C)N(C)C(=O)[C@H](C)CC1CCCCC1)C(C)(C)C)CC(=O)C(C)(C)C)C1(C(=O)O)CCCC1)C(C)(C)C | ELISA | BHK-21 | - | 0.4 µM
CC(C)(C)[Si](C)(C)OC[C@H]1O[C@@H](n2ccc(=O)[nH]c2=O)[C@H](O[Si](C)(C)C(C)(C)C)C1(O)C(Cl)C(N)=O | plaque count | VERO | - | >3.8 µM
Cc1cccn2c(C3OCCO3)cnc12 | - | E6SM | VMW 1837 (TK+/TK-) | >1000 µM
[O-][n+]1onc2ncnc(N3CC[N+]4(CC3)CC[N+]3(CCN(c5ncnc6no[n+]([O-])c56)CC3)CC4)c21 | plaque count | GMK | KUPKA | 8.1 µM
CSc1nsc(-c2ccc(OCc3ccccc3)cc2)c1C#N | plaque count | VERO | F strain | >50 µM
CNc1ncnc2c1ncn2[C@H]1S[C@H](CO)C[C@@H]1N=[N+]=[N-] | - | - | - | >100 µg/mL
COCc1cn([C@@H]2C[C@H](CO)[C@@H](O)C2)c(=O)nc1N | plaque count | A549 | McIntyre | 6.69 µM
Cc1cn([C@@H]2O[C@H](CO[Si](C)(C)C(C)(C)C)C3(O[C@H]3C(=O)NN)[C@H]2O[Si](C)(C)C(C)(C)C)c(=O)[nH]c1=O | plaque count | VERO | - | >5.5 µM
Nc1nc2c(ncn2[C@@H]2CO[C@H](CO)[C@@H](O)C2)c(=O)[nH]1 | cytopathic effect | VERO | - | 1–10 µM
CC(C)(C)NC(=O)CN(C(=O)[C@H]1CC[C@@]2(C)C3CC=C4C[C@@H](O)CC[C@]4(C)C3CC[C@]12C)c1ccccc1 | plaque count | Vero cells | B2006 | 20 µM
Nc1nc2c(ncn2COCCO)c(=O)[nH]1 | cytopathic effect | BALB/3T3 | KOS | 0.01 µg/mL
[N-]=[N+]=N[C@H]1C[C@H](CO)S[C@H]1n1ccc(N)nc1=O | - | - | - | >100 µg/mL
N=c1ncn(Cc2ccco2)c2nc[nH]c12 | plaque count | BSC-1 | - | >50 µg/mL
CSc1nsc(-c2cccnc2)c1C#N | plaque count | VERO | F strain | >20 µM
Cc1ccn2c(C3OCCO3)cnc2c1 | - | E6SM | VMW 1837 (TK+/TK-) | >1000 µM
CCN(CC)CCCOc1c2ccoc2cc2oc(=O)ccc12 | virus yield | VERO | Clinical isolate | 3.6 µg/mL
CCCCCCCCCCCC(=O)NC(C)(C)C(=O)N1CCCC1C(=O)N[C@@H](CC(C)C)C(=O)N[C@H](C(=O)N[C@@H](CCC(N)=O)C(=O)N[C@H](CO)CC(C)C)C(C)C | cytopathic effect | VERO | - | 3.1 µM
O=c1c2cc(Cl)ccc2[nH]c2cc(O)cc(O)c12 | - | VERO | - | 83 µM
Cc1cn([C@@H]2S[C@@H](CO)C[C@@H]2N=[N+]=[N-])c(=O)[nH]c1=O | - | - | - | >100 µg/mL
Nc1nc(=O)n([C@@H]2O[C@H](CO)[C@@H](O)[C@@H]2F)cc1F | plaque count | VERO | 2931 | <0.1 µg/mL
CCCCn1cnc(=N)c2[nH]cnc21 | plaque count | BSC-1 | - | >50 µg/mL
CSc1nsc(-c2c(Cl)cccc2Cl)c1C#N | plaque count | VERO | F strain | >5 µM
CCn1cnc(=N)c2[nH]cnc21 | plaque count | BSC-1 | - | >50 µg/mL
Cc1cccn2c(C3SCCS3)cnc12 | - | E6SM | KOS | >1000 µM
CCCCCC(=O)Nc1nc(=O)n([C@@H]2C[C@H](CO)[C@@H](O)C2)cc1COC | plaque count | A549 | McIntyre | 4.89 µM
Nc1nc2c(ncn2COCCO)c(=O)[nH]1 | - | - | - | 0.15 µg/mL
O=c1[nH]c(=O)n([C@@H]2O[C@H](CO)[C@@H](O)[C@@H]2O)cc1/C=C/Br | cytopathic effect | HSF | KOS | 0.02 µg/mL
Nc1nc2c(ncn2COCCO)c(=O)[nH]1 | plaque count | Vero cells | - | 2.6 µg/mL
CNc1nc(=O)n([C@@H]2C[C@H](CO)[C@@H](O)C2)cc1COC | plaque count | A549 | McIntyre | >1024 µM
O=c1[nH]c(=O)n([C@@H]2O[C@H](CO)[C@@H](O)[C@@H]2O)cc1I | plaque count | VERO | 2931 | <10 µg/mL
[N-]=[N+]=N[C@H]1C[C@H](CO)S[C@@H]1n1cnc2c(Cl)ncnc21 | - | - | - | >100 µg/mL
O=C(O)CP(=O)(O)O | - | VERO | - | 57 µM
CC(C)(C)[Si](C)(C)OC[C@H]1O[C@@H](n2ccc(=O)[nH]c2=O)[C@H](O[Si](C)(C)C(C)(C)C)/C1=C/CO | plaque count | VERO | - | >5 µM
O=c1[nH]c(=O)n([C@@H]2O[C@H](CO)[C@@H](O)[C@@H]2F)cc1Br | plaque count | VERO | 2931 | <1 µg/mL
Nc1nc2c(ncn2[C@@H]2C[C@H](CO)[C@H]2CO)c(=O)[nH]1 | cytopathic effect | VERO | - | 0.01–0.1 µM
COc1nsc(-c2ccccc2)c1C#N | plaque count | VERO | F strain | >25 µM
Nc1nc2c(ncn2COCOCP(=O)(O)O)c(=O)[nH]1 | cytopathic effect | VERO | - | 2.6 µg/mL
Nc1ccn([C@@H]2O[C@H](CO)[C@@H](O)[C@@H]2O)c(=O)n1 | cytopathic effect | T-21 | KOS | 0.04 µg/mL
N#Cc1c(-c2ccccc2)s[nH]c1=S | plaque count | VERO | F strain | >60 µM

The last 6 rows once more:

compound,method,cells,strain,value
O=c1[nH]c(=O)n([C@@H]2O[C@H](CO)[C@@H](O)[C@@H]2F)cc1Br,plaque count,VERO,2931,<1 µg/mL
Nc1nc2c(ncn2[C@@H]2C[C@H](CO)[C@H]2CO)c(=O)[nH]1,cytopathic effect,VERO,-,0.01–0.1 µM
COc1nsc(-c2ccccc2)c1C#N,plaque count,VERO,F strain,>25 µM
Nc1nc2c(ncn2COCOCP(=O)(O)O)c(=O)[nH]1,cytopathic effect,VERO,-,2.6 µg/mL
Nc1ccn([C@@H]2O[C@H](CO)[C@@H](O)[C@@H]2O)c(=O)n1,cytopathic effect,T-21,KOS,0.04 µg/mL
N#Cc1c(-c2ccccc2)s[nH]c1=S,plaque count,VERO,F strain,>60 µM